{"source": "patent US9101635B2", "about": "(priority 2009, dated 2015)", "key": {"[1]": {"tested_on": "HIV/EBOV-GP pseudotype virus", "format": "cell-based, EBOV Zaire strain"}, "[2]": {"tested_on": "recombinant Zaire EBOV expressing green fluorescent protein (GFP-ZEBOV)", "format": "cell-based, EBOV (Zaire subtype, 1995 strain)", "conditions": "for GFP-ZEBOV SI: ratio CC50 / IC50"}}, "data": [{"smiles": "CCOc1ccc(NC(=O)CSc2nnc(COc3cccc(N(C)C)c3)n2-c2ccccc2)cc1", "note": "[K]", "values": [{"measurement": "HIV/EBOV-GP SI", "setting": "[1]", "value": 98}]}, {"smiles": "COc1cccc(C(CC(=O)c2ccc(Cl)cc2)C(C#N)C#N)c1", "note": "(stereo not drawn) [B]", "values": [{"measurement": "GFP-ZEBOV SI", "setting": "[2]", "value": 5.15}, {"measurement": "HIV/EBOV-Gp SI", "setting": "[1]", "value": 3.28}]}, {"smiles": "O=c1c2ccccc2nc(/C=C/c2ccc([N+](=O)[O-])o2)n1-c1cccc(C(F)(F)F)c1", "note": "[D]", "values": [{"measurement": "GFP-ZEBOV SI", "setting": "[2]", "value": 4.03}, {"measurement": "HIV/EBOV-Gp SI", "setting": "[1]", "value": 27.2}]}, {"smiles": "Cc1ccc(N(c2ccc(C)cc2)c2cccnc2)cc1", "note": "[H]", "values": [{"measurement": "GFP-ZEBOV SI", "setting": "[2]", "value": 1.1}, {"measurement": "HIV/EBOV-Gp SI", "setting": "[1]", "value": 2.12}]}, {"smiles": "O=C(Nc1ccc(Cl)c(Cl)c1)c1ccc([N+](=O)[O-])o1", "note": "[E]", "values": [{"measurement": "GFP-ZEBOV SI", "setting": "[2]", "value": 2.75}, {"measurement": "HIV/EBOV-Gp SI", "setting": "[1]", "value": 2.59}]}, {"smiles": "N=c1c2c(-c3ccccc3)c(-c3ccccc3)n(Cc3ccco3)c2ncn1CCCn1ccnc1", "note": "[F]", "values": [{"measurement": "GFP-ZEBOV SI", "setting": "[2]", "value": 3.2}, {"measurement": "HIV/EBOV-Gp SI", "setting": "[1]", "value": 2.2}]}, {"smiles": "COc1ccc(OC)c(NC(=O)CC(c2ccc(OC)cc2OC)S(=O)(=O)c2ccccc2)c1", "note": "(stereo not drawn) [I]", "values": [{"measurement": "Infectious EBOV SI", "setting": "[2]", "value": 9}, {"measurement": "HIV/EBOV-GP SI", "setting": "[1]", "value": 12}]}, {"smiles": "FC(F)C(F)(F)C1=Nc2ccccc2N=C(c2ccccc2)C1", "note": "[Compound G]", "values": [{"measurement": "Infectious EBOV SI", "setting": "[2]", "value": 6}, {"measurement": "GFP-ZEBOV SI", "setting": "[2]", "value": 5.5}, {"measurement": "HIV/EBOV-GP SI", "setting": "[1]", "value": 6}, {"measurement": "HIV/EBOV-Gp SI", "setting": "[1]", "value": 6.19}]}, {"smiles": "CC[C@@]1(O)C(=O)OCc2c1cc1n(c2=O)Cc2cc3ccccc3nc2-1", "note": "[C]", "values": [{"measurement": "GFP-ZEBOV SI", "setting": "[2]", "value": 2.95}, {"measurement": "HIV/EBOV-Gp SI", "setting": "[1]", "value": 25}]}, {"smiles": "CCCN(C)c1c([N+](=O)[O-])cc([N+](=O)[O-])c2cccnc12", "note": "[A, 5,7-dinitro-8-[methyl(propyl)amino]quinoline]", "values": [{"measurement": "GFP-ZEBOV SI", "setting": "[2]", "value": 2}, {"measurement": "HIV/EBOV-Gp SI", "setting": "[1]", "value": 1.6}]}]}
